In patent publication US20090270312A1, “HIV-I GP41 FUSION PEPTIDES FOR IMMUNOMODULALTION” (priority 2005, published 2009):

System: A2b cells
Experiment: Co-localization of peptides with membrane molecules (fluorescence confocal microscopy)
Assay type: cell-based, rat
Conditions: for co-localization with the CD4 and TCR molecules: FITC-labeled antibodies to CD4 or TCR, FIG. 2B-C; for distribution on the membrane of activated T cells: fluorescently labeled peptide, FIG. 2A

| Substance | co-localization with the CD4 and TCR molecules | distribution on the membrane of activated T cells |
| --- | --- | --- |
| FP-Rho: FP conjugated to Rhodamine (AVGIGALFLGFLGAAGSTMGARSMTLTVQARQL) | showed the same co-localization | inserted themselves into a particular membrane domain |
| FP-NBD: FP conjugated to NBD (AVGIGALFLGFLGAAGSTMGARSMTLTVQARQL) | showed the same co-localization | inserted themselves into a particular membrane domain |
